{"source": "patent US6444787B1", "about": "(Research Development Institute, Inc., priority 1997, dated 2002)", "assay": "peptide made by a vendor (Fmoc solid-phase peptide synthesis)", "settings": "whole synthesis, HPLC and mass spectrometer analysis", "note": "Ends that are not written are not given here."}
{"sequence": "FDTGAFDPDWPAC", "values": [{"measurement": "purity (crude or final not stated)", "result": ">70", "unit": "%"}]}
